# Values quoted from earlier work in patent US20210322464A1, “METHOD OF TREATING AND PREVENTING CORONAVIRUS DISEASE 19 (COVID-19) USING A SELENIUM ADMINISTRATION” (priority 2020, published 2021).
# Details: humans; cited from earlier work
smiles,measurement,value
[Se] [Selenium],whole blood Selenium levels at which symptoms of toxicity have been reported,"above 1,000 μg/L"
